Holding throughout (details): pH 7.5
For assay [1], the target named is Gamma carbonic anhydrase family protein (Vibrio cholerae, UniProt A0A0H7HLM5).
The target in assay [2] is Alpha-carbonic anhydrase (Helicobacter pylori (strain G27), UniProt B5Z8I0). Briefly: ASSAY_NAME: ChEMBL_158306 (CHEMBL763191) DESCRIPTION: Inhibition of Vibrio cholerae alpha carbonic anhydrase preincubated for 15 mins by stopped-flow CO2 hydrase assay.
Assay [3] has as its target Carbonic anhydrase (Vibrio cholerae serotype O1 (strain ATCC 39315 / El Tor Inaba N16961), UniProt Q9KMP6). The experiment in a line: ASSAY_NAME: ChEMBL_158307 (CHEMBL763192) DESCRIPTION: Inhibition of Flaveria bidentis carbonic anhydrase 1 preincubated for 15 mins by stopped-flow CO2 hydrase assay.
Assay [4] concerns the target Carbonic anhydrase (Vibrio cholerae, UniProt A0A086SLX8). The experiment in a line: ASSAY_NAME: ChEMBL_158311 (CHEMBL763368) DESCRIPTION: Inhibition of Vibrio cholerae carbonic anhydrase beta preincubated for 15 mins by stopped-flow CO2 hydrase assay.

Amino acid sequences for entries named in this document (tags omitted). Residues count along the entry.
UniProt A0A0H7HLM5, 1-183: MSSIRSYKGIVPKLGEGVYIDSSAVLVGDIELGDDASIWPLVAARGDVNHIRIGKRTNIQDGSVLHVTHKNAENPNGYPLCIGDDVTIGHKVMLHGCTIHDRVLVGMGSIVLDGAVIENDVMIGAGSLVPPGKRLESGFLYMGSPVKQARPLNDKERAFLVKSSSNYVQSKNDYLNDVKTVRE
UniProt B5Z8I0, 22-247 limits assumed: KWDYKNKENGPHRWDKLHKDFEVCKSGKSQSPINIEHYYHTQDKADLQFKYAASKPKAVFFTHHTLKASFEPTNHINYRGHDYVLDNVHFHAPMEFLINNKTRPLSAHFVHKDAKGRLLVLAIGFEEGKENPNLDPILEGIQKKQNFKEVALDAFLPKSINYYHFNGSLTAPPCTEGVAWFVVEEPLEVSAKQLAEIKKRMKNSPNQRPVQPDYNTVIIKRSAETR
UniProt Q9KMP6, 21-239 limits assumed: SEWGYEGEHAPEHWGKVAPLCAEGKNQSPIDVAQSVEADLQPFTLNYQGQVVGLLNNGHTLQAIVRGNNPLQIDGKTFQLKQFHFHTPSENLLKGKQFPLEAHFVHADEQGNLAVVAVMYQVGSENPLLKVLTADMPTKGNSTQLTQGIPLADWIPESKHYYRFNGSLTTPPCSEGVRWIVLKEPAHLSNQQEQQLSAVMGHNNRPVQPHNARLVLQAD
UniProt A0A086SLX8, 1-222: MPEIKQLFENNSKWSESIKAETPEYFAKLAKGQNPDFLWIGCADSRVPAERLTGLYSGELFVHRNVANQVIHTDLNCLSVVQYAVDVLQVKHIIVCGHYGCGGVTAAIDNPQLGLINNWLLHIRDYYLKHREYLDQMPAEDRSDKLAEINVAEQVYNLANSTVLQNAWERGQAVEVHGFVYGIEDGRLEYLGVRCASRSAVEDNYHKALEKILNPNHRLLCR

`O=[As](O)(O)c1ccccc1` came in with a Ki in assay [1] of 91 µM.

As to `N#CO`, the results for the Ki in assay [1] and in assay [2] were 2600 µM and 600 µM, respectively.

As for `[O]=[V]([OH])([OH])[O][V](=[O])([OH])[OH]`, the Ki in assay [3] came out at 840 µM; in assay [1] it was 8300 µM; in assay [4], 7900 µM; in assay [2], 270 µM.

The values above are taken from BindingDB's records for 27283786 (2016).
